# Experimental data from patent US20230192819A1 (TWIST BIOSCIENCE, published 2023).
# Assays:
# [1] = target: South Africa Variant 501.V2 (SARS-CoV-2)
# UK Variant B.1.1.7 = UK Variant B.1.1.7 (SARS-CoV-2)
Binder,IC50 [1] [nM],IC50 (UK Variant B.1.1.7) [nM]
Antibody 1-7 (Fc fusion) EVQLVESGGGLVQPGGSLRLSCAASGGTFSSIGMGWFRQAPGKEREFVAAISWDGGATAYADSVKGRFTISADNSKNTVYLQMNSLKPEDTAVYYCAKEDVGKPFDWGQGTLVTVSS,1.5,2.01
Antibody 1-10 (Fc fusion) EVQLVESGGGLVQPGSSLRLSCAASGGTFSSIGMGWFRQAPGKEREFVAAISWDGGATAYADSVKGRFTISADNSKNTAYLQMNSLKPEDTAVYYCAKEDVGKPFDWGQGTLVTVSS,1.75,0.356
Antibody 1-8 (Fc fusion) EVQLVESGGGLVQPGGSLRLSCAASGRTLSRYTMGWFRQAPGKEREFVASITSGGTTNYADSVKGRFTISADNSKNTAYLQMNSLKPEDTAVYYCAKEDVGKPFDWGQGTLVTVSS,4.95,62.3
Antibody 1-15 (Fc fusion) EVQLVESGGGLVQPGGSLRLSCAASGGIFSDMFMGWFRQAPGKEREFVATIDWSGDTAFYADSVKGRFTISADNSKNTAYLQMNSLKPEDTAVYYCAVDLSGDAVYDWGQGTLVTVSS,0.213,1.23
Antibody 1-1 (Fc fusion) EVQLVESGGGLVQPGGSLRLSCAASGSIGSINAMGWFRQAPGKEREWVAGISNGGTTNYADSVKGRFTISADNSKNTAYLQMNSLKPEDTAVYYCAADGVPEYSDYASGPVWGQGTLVTVSS,73.3,34
